Compound potency records, mixed from different reports. Data source: NIAID ChemDB in PubChem.

Shared fields: whole-cell or culture tests

ECn is the concentration giving n% inhibition of infection, replication or growth. Percent inhibition refers to the dose given; in toxicity tests it is the harm to the cells. A number after MIC or MFC names an inhibition level or a share of isolates. Zones are inhibition diameters on agar. An empty or dashed field is not shown. Rows are shuffled and stem from different studies.

smiles	species	strain	changes	cells	read by	read-out	dose	result
C#CC[C@@H](C(=O)N[C@H](/C=C/C(=O)OCC)C[C@@H]1CCNC1=O)n1cccc(NC(=O)c2cc(C)on2)c1=O	Rhinovirus	Serotype 84		H1-HELA	cytopathic effect / XTT	inhibition	0.204 µM	90%
CO[C@H]1/C=C/O[C@@]2(C)Oc3c(C)c(O)c4c(O)c(c5c(c4c3C2=O)NC2(CCN(CC(C)C)CC2)N=5)=NC(=O)/C(C)=C\C=C\[C@H](C)[C@H](O)[C@@H](C)[C@@H](O)[C@@H](C)[C@H](OC(C)=O)[C@@H]1C	Staphylococcus aureus	20 strains (methicillin-resistant)				MIC90		0.0625 µg/mL
CCC(C)n1ncn(-c2ccc(N3CCN(c4ccc(OC[C@H]5CO[C@](Cn6cncn6)(c6ccc(Cl)cc6Cl)O5)cc4)CC3)cc2)c1=O	Candida albicans	Isogenic isolate 9 (25X)				MIC		0.015 µg/mL
O=C(Nc1ncc([N+](=O)[O-])s1)c1ccccc1O	Encephalitozoon intestinalis			RK-13		inhibition	10 µg/mL	86.2%
CCO/N=C/c1ccc(OCCC2CCN(c3ccc(C)nn3)CC2)cc1	Rhinovirus	FO 1-3772 (ICAM-1 receptor group 52)		KB	neutral red	EC50		0.011 µM
CCOC(=O)Nc1cc2c(c(N)n1)N=C(c1cccc(OC)c1)CS2	Encephalitozoon intestinalis			RK-13		inhibition	10 µg/mL	74.3%
C[C@H](Cc1ccc(O)c(O)c1)[C@@H](C)Cc1ccc(O)c(O)c1	Candida lusitaniae	CCC 131-2000			broth dilution	MIC50		250 µg/mL
COc1cc2oc(=O)ccc2cc1CC(O)C(C)(C)O	Staphylococcus epidermidis				agar diffusion	zone	250 µg/disc	16 mm
c1ccc2[nH]c(-c3cscn3)nc2c1	Encephalitozoon intestinalis			RK-13		inhibition	0.01 µg/mL	34.9%
CC(C)=CCN1Cc2cc(Cl)cc3[nH]c(=S)n(c23)C[C@@H]1C	HIV-1		RT-K70R K101E	MT-4		EC95		>3 µM
CC[C@H]1OC(=O)[C@H](C)[C@@H](O[C@H]2C[C@@](C)(OC)[C@@H](O)[C@H](C)O2)[C@H](C)[C@@H](O[C@@H]2O[C@H](C)C[C@H](N(C)C)[C@H]2O)[C@](C)(OC)C[C@@H](C)C(=O)[C@H](C)[C@@H](O)[C@]1(C)O	Mycobacterium abscessus	X42			broth dilution	MIC		4 µg/mL
Nc1ncnc2c1ncn2C[C@H](CO)OCP(=O)(O)O	Adenovirus	adenoid 75 (TYPE 5)			cytopathic effect	EC50		10 µg/mL
CCOC(=O)Nc1cc(NC/C(=N/O)c2ccc(Cl)cc2Cl)c([N+](=O)[O-])c(N)n1	Encephalitozoon intestinalis			RK-13		inhibition	1 µg/mL	3.9%
Nc1nc2c(ncn2CCOCP(=O)(O)O)c(=O)[nH]1	Measles virus	CC			virus yield	inhibition	12 µg/mL	90%
O=C(NC(=O)c1c(F)cccc1F)Nc1cc(Cl)c(OC(F)(F)C(F)C(F)(F)F)cc1Cl	Vittaforma corneae			RK-13		inhibition	5 µg/mL	40.9%
CN(C)c1cc(NC(=O)CNC(C)(C)C)c(O)c2c1C[C@H]1C[C@H]3[C@H](N(C)C)C(=O)C(C(N)=O)=C(O)[C@@]3(O)C(=O)C1=C2O	Mycobacterium massiliense	X14			broth dilution	MIC		1 µg/mL
Nc1ccn([C@@H]2C[C@H](CO)[C@@H](O)[C@H]2O)c(=O)n1	Vesicular stomatitis virus			HK	cytopathic effect	EC50		85 µg/mL
CC1(C)[C@@H](O[C@H]2O[C@H](C(=O)O)[C@@H](O)[C@H](O)[C@H]2O[C@@H]2O[C@H](C(=O)O)[C@@H](O)[C@H](O)[C@H]2O)CC[C@]2(C)[C@H]3C(=O)C=C4[C@@H]5C[C@@](C)(C(=O)O)CC[C@]5(C)CC[C@@]4(C)[C@]3(C)CC[C@@H]12	Dengue virus	TYPE 4 (YUNH)		VERO	virus yield	EC50		<416 µg/mL
Nc1ncnc2c1ncn2C[C@@H](CO)OCP(=O)(O)O	Adenovirus	WT 300 (TYPE 5)			cytopathic effect	EC50		15 µg/mL
COc1cc(Cc2cnc(N)nc2N)cc(OC)c1Br	Mycobacterium ulcerans	ATCC 35840				MIC		4 µg/mL
CO[C@@H]1[C@H](OC(=O)NC(=O)CCl)CC[C@]2(CO2)[C@H]1[C@@]1(C)O[C@@H]1CC=C(C)C	Encephalitozoon intestinalis			RK-13		inhibition	0.01 µg/mL	81.5%
CCCN1CCN(c2cc(=O)c3nc4c(oc3c2)c2c(=O)c3c(O)c(C)c5c(c34)=C(O)[C@@](C)(O/C=C/[C@H](OC)[C@@H](C)[C@@H](OC(C)=O)[C@H](C)[C@H](O)[C@H](C)[C@@H](O)[C@@H](C)/C=C/C=C(/C)C(=O)N2)O5)CC1	Staphylococcus aureus	ATCC 25923				MIC		0.0078 µg/mL
COc1cc(Cc2cnc(N)nc2N)cc(OC)c1OC	Mycobacterium ulcerans	ATCC 19423				MBC		>32 µg/mL
CCOC(=O)Nc1cc2c(c(N)n1)N=C1c3ccccc3CCC1O2.Cl.Cl	Encephalitozoon intestinalis			RK-13		inhibition	0.01 µg/mL	9.4%

A second listing of 3 rows from above:

smiles | species | strain | changes | cells | read by | read-out | dose | result
Nc1nc2c(ncn2CCOCP(=O)(O)O)c(=O)[nH]1 | Measles virus | CC |  |  | virus yield | inhibition | 12 µg/mL | 90%
Nc1ncnc2c1ncn2C[C@@H](CO)OCP(=O)(O)O | Adenovirus | WT 300 (TYPE 5) |  |  | cytopathic effect | EC50 |  | 15 µg/mL
CC[C@H]1OC(=O)[C@H](C)[C@@H](O[C@H]2C[C@@](C)(OC)[C@@H](O)[C@H](C)O2)[C@H](C)[C@@H](O[C@@H]2O[C@H](C)C[C@H](N(C)C)[C@H]2O)[C@](C)(OC)C[C@@H](C)C(=O)[C@H](C)[C@@H](O)[C@]1(C)O | Mycobacterium abscessus | X42 |  |  | broth dilution | MIC |  | 4 µg/mL